Human monoclonal antibodies against the spike receptor-binding domain (heavy:light variable regions). IC50 against pseudoviruses bearing the spike of naturally observed variants; lower = stronger; >10 µg/ml means not reached at the top dose. No active / inactive call. The stated detection limit is 0.0005 µg/ml; values near or below 0.001 µg/ml lie at the floor of the assay.
B1: BD57-0195 (protein)
chain 1: QVQLQESGPGLVKPSQTLSLTCTVSGDSISRGGYYWSWIRQHPGKGLEWIGHIYYSGSTYYNPSLKSRVAISVDTSKNHFSLRLSSVTAADTAVYYCARVVDTAAQLDPWGQGTLVTVSS
chain 2: QSVLTQPPSVSAAPGQKVTISCSGSSSNIGNSFVSWYQQFPGRAPKLLIYDDDKRPSGTPDRFSGSKSGTSATLGITGLQTGDEADYYCGTWDSSLNSGVFGGGSKLTVL
B2: BD57-0198 (protein)
chain 1: QVQLQESGPGLVKPSQTLSLTCTVSGGSISSGDFYWSWIRQLPGKGLEWIGYIYYSGGTFYNPSLRSRLSISVDTSKNQFSLKLSSVTAADTAVYYCARDKDYSDSGGPAVTWGVAAFDIWGQGTMVTVSS
chain 2: DIQMTQSPSSLSASVGDRVTITCQASQDISNYLNWYQQKPGKAPKLLIYDASNLETGVPSRFTGSGSGTDFTFTISSLQPEDIATYYCQQYDNLPPTFGQGTKVEVK
B3: BD57-0199 (protein)
chain 1: QVQLQESGPGLVKPSQTLSLTCSVSGGSLITSYYYWSWIRQRPGKGLEWIGYIYHSGNTYYNPSLKSRVTISIDTSTNEISLKLTSVTAADTAVYFCARDFGGNANYFGYWGQGSLVTVSS
chain 2: DIQMTQSPASLPASVGDRVTITCQASQDISKYLSWYQQKPGKAPNLLIYDASDLETGVPSRFSGSGSGTKFTFTISSLQPEDFATYYCQQYANLPITFGQGTRLETK
B4: BD57-0202 (protein)
chain 1: EVQLVQSGPEVKKPGESLNISCKASGYSFSTYWIAWVRQMPGKGLEWMGMIYPGDSDTRYSPSFQGQVTISADNSINTAYLQWSSLKASDTAIYYCATGSQWPPYYYYMDVWGKGTTVIVSS
chain 2: DIQMTQSPSSLSASVGDRVTITCRASQSIGDYVNWYQQKPGRAPKLLISAASSLQRGVPSRFSGSGSGTDFSLTISSLQPEDFATYYCQQSYTILWTFGQGTKVDIK
B5: BD57-0203 (protein)
chain 1: EVQLVESGGGLVKPGGSLRVSCAASGFTFSDYSMNWVRQAPGRGLEWVSSISPRNSNRFYADSVKGRFTISRDNAKNSLYLQMSSMRAEDTAVYYCARGDLWGFDLVIGVAGHFDYWGPGTLVTVSS
chain 2: EIVLTQSPGTLSLSPGERATLSCRASQSVSSSSLAWYQQKPGQAPRLVIYGSSSRAAGIPDRFSGFGSGTDFTLTISRLEPEDFAMYYCQQFGTSPLYTFGQGTKLEIK
B6: BD57-0205 (protein)
chain 1: EVHLVQSGAEVKKPGESLKISCKGSGYNFSFYWIAWVRQMPGKGLEWMGIIYPGDSDTRYSPSFQGQVTISADKSISTAYLQWSSLKASDTAIYYCARLDILTGSGRYWGQGTLVTVSS
chain 2: DIQMTQSPSSLSASVGDRVTITCQASQDITNHLNWYQQKPGQAPKLLIYDASILETGVPSRFSGSGSGTDFTFTISSLQPEDIATYYCQQFKTLLTWTFGQGTKVAIK
B7: BD57-0206 (protein)
chain 1: QVQLVESGGGVVQPGRSLRLSCAASGFSLITYDIHWVRQAPGKGLEWVANIWYDGSNKYYVDSVKGRFTISRDNSKNTVFLQMNSLRAEDTAVYYCARDSGIVVASPDYWGQGTLVIVSS
chain 2: DVVMTQSPPSLPVTLGQPASISCRSSQSLVYVDGNTYLSWFHQRPGQSPRRLIYEVSNRGSGVPDRFSGSGSGTDFTLKISRVEAEDVGVYYCMQGTHWPWTFGQGTKVELK
B8: BD57-0212 (protein)
chain 1: EVQLVESGGGLVQPGGSLRLSCTASGFTFSNYDFLWVRQATGKSLEWVSAIGTAGDTYYPDSVKGRFTISRENAKNSLYLQMNSLRAGDTAVYYCARDSGESSSWIFDYWGQGILVTVTS
chain 2: DIQMTQSPSSLSASVGDRVTITCRASQSINRFLNWYQQKPGKAPKLLIYAASSLQSGVPSRFSGSGSGTHYTLTISSLQPEDFATYYCQQSYETPAITFGGGTKVEIK
B9: BD57-0218 (protein)
chain 1: QVQLVQSGAEVKKPGASVRVSCKASDYTFTTYTITWVRQAPGRGLEWMGWISAYNGDTNYAQRLQGRVTMTTDTSTSTAYLELRSLRSDDTAVYYCASDFGDAGLVSGLDVWGQGTTVTVSS
chain 2: DIQMTQSPSSLSASVGDRVTVTCRASQSIRNFLHWYQQKPGKAPKLLIHAASSLQSGVPSRFSGSGSGTDFTLTISSLQPEDFATYYCQQSYSSPHTFGPGTKVDIK
B10: BD57-0219 (protein)
chain 1: QVQLQESGPRLVKSSETLSLTCTVSGVSISSSYWSWIRQPPGKGLEWIGNIFYSGSTNYNPSLKSRVTISVDTSQMHFSLRLSSVTAADTAVYYCARDPLGYKGGEFDYWGQGTLVTVSS
chain 2: QSVLTQPPSVSAAPGQKVTISCSGSNSNIGDNYISWYQHLPGTAPRLLIYDNNKRPSGIPDRFSGSKSGTSATLGITGLQTGDEADYYCGTWDSSLNIVLFGGGTKLTVL
B11: BD57-0222 (protein)
chain 1: EVQLVQSGAVLKKPGESLKISCTGSGYSFTNYWIAWVRQRPGKGLEWMGIIYPGDSDTRYNPSFQGQVTFSTDMSTAYLQWNSLKASDTAIYYCATSRGGAYDPYGDYPHWGQGTLVTVSS
chain 2: EIVLTQSPATLSLSPGERGTLSCGASQSLGGPYLAWYQQKPGLAPRLLIYEASNRATGIPDRFSGSGSGTDFTLTISKLEPEDFAVYYCQQYGSSPLTFGGGTRVEIK
B12: BD57-0224 (protein)
chain 1: QVQLVESGGGVVQPGRSLRLSCAASGFTFSSSPLHWVRQAPGKGLEWVAFISYDGTNKYYADSVKGRFTVSRDNFKNTLYLEMNSLRAEDTAFYYCTRATGGEVFTLDAFDIWGQGTMVTVSS
chain 2: SYVLTQPPSVSVAPGKTATITCGGNSIGSKSVHWYQQKPGQSPVLVIYYDSDRPSGIPERFSGSNSGNTATLTISRVEAGDEADYYCQVWDIGVVFGGGTKLTVL

What was measured:
Assay in all cases: pseudovirus neutralization IC50; higher = weaker neutralization
[1] = molecular target: SARS-CoV-2 Omicron BA.1 spike pseudovirus
Experimental: (§1)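 Single-round VSV luciferase pseudovirus mixed with antibody dilutions for 1 h and put on Huh-7 cells for about a day; IC50 from the dose curve.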

[2] = molecular target: SARS-CoV-2 Omicron BA.2 spike pseudovirus
Experimental: as §1

[3] = molecular target: SARS-CoV-2 Omicron BA.2.75 spike pseudovirus
Experimental: as §1

[4] = molecular target: SARS-CoV-2 Omicron BA.5 spike pseudovirus
Experimental: as §1

[5] = molecular target: SARS-CoV-2 Omicron BQ.1.1 spike pseudovirus
Experimental: as §1

[6] = molecular target: SARS-CoV-2 Omicron XBB spike pseudovirus
Experimental: as §1

[7] = molecular target: SARS-CoV-2 early D614G spike pseudovirus
Experimental: as §1

Binder | pseudovirus neutralization IC50 [1] [µg/mL] | pseudovirus neutralization IC50 [2] [µg/mL] | pseudovirus neutralization IC50 [3] [µg/mL] | pseudovirus neutralization IC50 [4] [µg/mL] | pseudovirus neutralization IC50 [5] [µg/mL] | pseudovirus neutralization IC50 [6] [µg/mL] | pseudovirus neutralization IC50 [7] [µg/mL]
B1 | 1.2 | 2.04 | 1.97 | 2.85 | > 10 | 2 | > 10
B2 | > 10 | > 10 | > 10 | > 10 | > 10 | > 10 | > 10
B3 | 3.43 | 5.55 | 3.38 | 5.64 | 5.2 | 4.58 | > 10
B4 | 0.883 | 1.28 | 0.968 | 1.3 | 2.2 | 2.1 | 9.39
B5 | 3.07 | 1.77 | 3.03 | 9.03 | > 10 | 9.02 | > 10
B6 | 0.00219 | 0.00498 | 0.0212 | 0.00678 | 3.33 | 3.31 | 0.00327
B7 | 1.19 | 1.09 | 0.721 | 0.768 | > 10 | 0.754 | > 10
B8 | 3.44 | 3.05 | 2.22 | 2.61 | 3.99 | 3.26 | 4.63
B9 | 1.05 | 1.31 | 0.391 | 1.97 | > 10 | > 10 | 0.413
B10 | 1.58 | 1.49 | 1.61 | 2.21 | 2.53 | 2.06 | 1.86
B11 | 0.605 | 0.336 | 0.557 | 0.352 | 2.43 | 1.87 | 1.64
B12 | > 10 | > 10 | > 10 | > 10 | > 10 | > 10 | > 10

— the supplement of paper PMC9931576
